{
  "source": "patent US20230374114A1",
  "about": "“Coronavirus antibodies and methods of use thereof” (Dana-Farber, published 2023)",
  "binders": {"B1": {"name": "S1-R3-T1-A12 (Ab_5) (scFv, V domains shown)", "VH": "QVQLVQSGGGVVQPGRSLRLSCAASGFTFTTYGMHWVRQAPGKGLEWVAVISYDGSIKNYADFVEGRFTISRDNSKNTLYLQMNSLRPEDTGVYYCARVGDSSSYYGIDAWGQGTLVTVSS", "VL": "QPVLTQPPSASGTPGQRVTISCSGSSSNIGSNSVNWYQQLPGTAPKLLIYSNNQRPSGVPDRFSDSKSGTSASLAISGLQSEDEADYFCAAWDDSLTGYVFGTGTKVTVL", "notes": "also called Ab 5 scFv-Fc"}, "B2": {"name": "S1-RBD-R3-T1-E2 (Ab7) (scFv, V domains shown)", "VH": "QVQLVQSGGGLVQPGRSLRLSCAASGFTFDDYAMHWVRQVPGKGLEWVSGIDWNSGVIGYADSVKGRFTISRDNAKNSLYLQMNSLRAEDTALYYCAKDAYSYGFLGAFDIWGQGTMVTVSS", "VL": "QPGLTQPPSVSVAPGQTARISCGGNNIGSKSVHWYQQKPGRAPVLVVYEDRGRPSGIPERFSGSNSGNTATLTVSRVEAGDEADYYCQVWDGDSDHYVFATGTKVSIL", "notes": "also called Ab 7 scFv-Fc"}, "B3": {"name": "Ab 28 (scFv, V domains shown)", "VH": "QVTLKESGPGLVNPSETLSLTCTVSGASISNSFWSWIRQSPGKGLEWIGYTSYSGNSIYNPSLKSRLTMSIDTSKNQLSLNLRSLTAADTAVYYCARREWIKGHFDYWGQGTLVTVSS", "VL": "NFMLTQPHSVSESPGKTVTISCTGSGGSIASNYVQWYQQRPGSAPTTVIYEDNQRPSGVPDRFSGSIDSSSNSASLTISGLKTEDEADYYCQSYDSSNPVVFGGGTKLTVL", "notes": "also called Ab 28 scFv-Fc"}, "B4": {"name": "RBD-R3-T1-H3 (Ab_2) (scFv, V domains shown)", "VH": "EVQLVQSGAEVKKPGSSVKVSCKTSGYTFTTSGISWVRQAPGQGLEWMGWISAYNGNTNYAQKLQGRVTMTTDTSTSTAYMELRSLRSDDTAVYYCARDFHLYYGMDVWGKGTLVTVSS", "VL": "QSALTQPPSASGSPGQSVTISCTGTSSDVGAYNYVSWYQQHPGKAPKLLIYDVTKRPPGVPDRFSGSKSGNTASLTVSGLQAEDEADYYCAVWDDGLNGRVVFGGGTKLTVL", "notes": "also called Ab 2 scFv-Fc"}, "B5": {"name": "S1-R3-T1-C4 (Ab_8) (scFv, V domains shown)", "VH": "QVQLVQSGAEVKKPGSSVKVSCKASGGTFSSYAISWLRQAPGQGLEWMGWINPNSGGTNYAQKFQGRVTMTRDTSISTAYMELSRLRSDDTAVYYCARGSGGYYLGWGQGTLVTVSS", "VL": "QPGLTQPPSVSKGLRQTATLTCTGNSNNVGNQGAAWLQQHQGHPPKLLSYMNNNRPPGISERFSASRSGNTASLTITGLQPEDEADYYCSAWDSSLSRWVFGGGTKLSVL", "notes": "also called Ab 8 scFv-Fc"}, "B6": {"name": "S1-RBD-R3-E1-E8 Ab (Ab 37) (scFv, V domains shown)", "VH": "QVQLVQSGAEVKKPGASVKVSCKASGYTFTSYGISWVRQAPGQGLEWMGWISTYNGNTNYAQKLQGRVTMTTDTSTSTAYMEVRSLRSDDTAVYYCARDVFGHFDYWGQGTLVTVSS", "VL": "NFMLTQPHSVSESPGKTVLISCTRSSGNIATNYVQWYQQRPGSAPTTVIYEDNQRPSGVPDRFSGSIDSSSNSASLTISGLKTEDEADYYCKSYDDGNHVFGGGTKLTVL", "notes": "also called Ab 37 scFv-Fc"}, "B7": {"name": "RBD-R3-E1-F5 Ab (Ab_36) (scFv, V domains shown)", "VH": "QVQLQQSGPGLVKPSQTLSLTCAIFGDSVTSNSAAWNWIRQSPSRGLEWLGRTYYSSKWYNDYAVSVKSRVTINADTSKNQLSLQLNSVTPEDTAVYYCARGWLRLSFDPWGQGTLVTVSS", "VL": "NFMLTQPHSVSESPGKTVTISCTGSSGSIASNYVQWLQQRLGSAPTTVIYEDNQRPSGVPDRFSGSIDSSSNSASLTISGLKTEDEADYYCQSYDPNNHGVVFGGGTKLTVL", "notes": "also called Ab 36 scFv-Fc"}, "B8": {"name": "S1-RBD-R3-T1-G1 Ab (Ab_35) (scFv, V domains shown)", "VH": "EVQLVQSGAEVKKPGESLRISCKASGYSFTSNWIGWVRQMPGKGLEWMGSIFPGDSDTKYSPSFQGQVTISADRSISTAYLQWSGLKASDTAMYYCARESYNAYGSWGQGTLVTVSS", "VL": "B1 VL with V3G, S33P, D65G, Q80R, F88Y, T97S, Y99V, T103G, V107L", "notes": "also called Ab 35 scFv-Fc"}, "B9": {"name": "Ab 38 (scFv, V domains shown)", "VH": "QVTLKESGPTLVKPTQTLTLTCTFSGFSLTTSGVSVGWIRQPPGKALEWLALIHWDDDKRYSPSLRSRLTITRDTSKNQVVLTVTDMDPADTGTYYCASFIMTVYAEYFEDWGQGTLVTVSS", "VL": "EIVLTQSPATLSVSPGERATLSCRASQSVSSNLAWYQQKPGQAPRLLMYDVSTRATGIPARFSGSGSGTEFSLTISSLQSEDFAVYYCQQRGAWPLTFGGGTKVEIK", "notes": "also called Ab 38 scFv-Fc"}, "B10": {"name": "S1-RBD-R3-T1-F9 Ab (Ab_39) (scFv, V domains shown)", "VH": "QVTLKESGPTLVKPTQTLTLTCTLSGVSLDTIGMRVSWIRQPPGKALEWLARIDWDDDKFYSTALKTRLTISKDTSKNQVVFTMTSMDPVDTATYYCARSGLLYDLDVWGRGTLVTVSS", "VL": "QSVVTQPPSVSGAPGQRVTISCTGSDSDIGANFVQWYQQLPGTAPKLLIWRNTNRPSGVPDRFSASKSGTSASLAITGLQAEDEADYFCQSYDSSLSAYVFGGGTKVTVL", "notes": "also called Ab 39 scFv-Fc"}},
  "note": "Substitutions are numbered along the chain they refer to.",
  "data": [
    {"biological_target": "B.1.1.7 Spike (SARS-CoV-2)", "assay": "biosensor, scFv-Fc loaded at 1 ug/ml, spike in solution at 48.4 nM", "units": {"Kd": "pM"}, "values": [
      {"binder": "B1", "Kd": 326, "Response": 0.185},
      {"binder": "B2", "Kd": 1.1, "Response": 0.356},
      {"binder": "B3", "Kd": 1.49, "Response": 0.206},
      {"binder": "B4", "Kd": 657, "Response": 0.161},
      {"binder": "B5", "Kd": 2.29, "Response": 0.202}
    ]},
    {"biological_target": "P.1 Spike (SARS-CoV-2)", "assay": "biosensor, scFv-Fc loaded at 1 ug/ml, spike in solution at 48.3 nM", "units": {"Kd": "pM"}, "values": [
      {"binder": "B1", "Kd": 7.71, "Response": 0.115},
      {"binder": "B2", "Kd": 10.9, "Response": 0.242},
      {"binder": "B3", "Kd": 8.91, "Response": 0.102},
      {"binder": "B4", "Kd": 9.13, "Response": 0.0281},
      {"binder": "B5", "Kd": 10.6, "Response": 0.0784}
    ]},
    {"biological_target": "B.1.1.7 Spike (SARS-CoV2)", "assay": "not given", "units": {"Kd": "pM"}, "values": [
      {"binder": "B6", "Kd": 1.28, "Response": 0.148},
      {"binder": "B7", "Kd": 5.16, "Response": 0.146},
      {"binder": "B8", "Kd": 7.96, "Response": 0.19},
      {"binder": "B9", "Kd": 1.47, "Response": 0.267},
      {"binder": "B10", "Kd": "< 1", "Response": 0.293}
    ]},
    {"biological_target": "P.1 Spike (SARS-CoV2)", "assay": "not given", "units": {"Kd": "pM"}, "values": [
      {"binder": "B6", "Kd": 8.99, "Response": 0.108},
      {"binder": "B7", "Kd": 8.89, "Response": 0.113},
      {"binder": "B8", "Response": 0.155},
      {"binder": "B9", "Kd": 7.23, "Response": 0.228},
      {"binder": "B10", "Kd": 11.2, "Response": 0.158}
    ]},
    {"biological_target": "B.1.351 Spike (SARS-CoV2)", "assay": "biosensor kinetics; scFv-Fc loaded at 1 ug/ml, spike as analyte at 48.5 nM", "units": {"Kd": "pM"}, "values": [
      {"binder": "B6", "Kd": 6.69, "Response": 0.118},
      {"binder": "B7", "Kd": 8.07, "Response": 0.134},
      {"binder": "B8", "Kd": 9.16, "Response": 0.165},
      {"binder": "B9", "Kd": 7.62, "Response": 0.234},
      {"binder": "B10", "Kd": 1.83, "Response": 0.167}
    ]},
    {"biological_target": "B.1.351 Spike (SARS-CoV-2)", "assay": "biosensor, scFv-Fc loaded at 1 ug/ml, spike in solution at 48.5 nM", "units": {"Kd": "pM"}, "values": [
      {"binder": "B1", "Kd": 18.1, "Response": 0.125},
      {"binder": "B2", "Kd": 1.67, "Response": 0.233},
      {"binder": "B3", "Kd": 6.38, "Response": 0.12},
      {"binder": "B4", "Kd": 503, "Response": 0.0439},
      {"binder": "B5", "Kd": 1090, "Response": 0.0872}
    ]}
  ]
}
